Measured data: PubChem BioAssay AID1224833 (University of Georgia, 2016)
Here is one part, drawn at random, of about 12,000 reagents tested. About 5,600 of them (46%) count as active. 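Active calls cover z-scores past 1 in both directions, so they include lowered as well as raised rotavirus replication.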

Purpose: 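Human genes whose knock-down alters rotavirus replication in monkey cells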 (primary screen)
System: monkey MA104 kidney cells
Reagent: siRNA pool against human genes, 50 nM
Duration: 48 h knock-down before infection; read 24 h after infection
Treatment: infection with rotavirus strain RV3 two days after transfection; infectious dose for this stage not given
Detection: 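Rotavirus antigen per well by fluorescent immunoassay, normalised to non-targeting control wells on each plate and given as a standard z-score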
Reading the numbers: z-score vs non-targeting control: higher = more rotavirus replication than with non-targeting control
Rule for the call: In these data the active calls have z-score vs non-targeting control at about -1 or lower, or at about 1 or higher
Calls: active = z-score beyond 1 either way; inactive = z-score within 1 of zero

| gene knocked down | PubChem SID | z-score vs non-targeting control | call |
| --- | --- | --- | --- |
| MYBPHL (myosin binding protein H like) | SID329584120 | 1.04 | active |
| FNDC1 (fibronectin type III domain containing 1) | SID329581669 | 0.257 | inactive |
| RHOC (ras homolog family member C) | SID329572812 | -2.45 | active |
| THBS3 (thrombospondin 3) | SID329575634 | -0.79 | inactive |
| CRB2 (crumbs cell polarity complex component 2) | SID329583971 | 0.802 | inactive |
| PGAP6 (post-GPI attachment to proteins 6) | SID329580439 | -1.35 | active |
| UBTD1 (ubiquitin domain containing 1) | SID329581124 | -0.121 | inactive |
| GPR63 (G protein-coupled receptor 63) | SID329581300 | -1.91 | active |
| APLP1 (amyloid beta precursor like protein 1) | SID329572784 | 0.884 | inactive |
| APCS (amyloid P component, serum) | SID329572781 | 0.708 | inactive |
| PLEKHJ1 (pleckstrin homology domain containing J1) | SID329579573 | -0.863 | inactive |
| AUP1 (AUP1 lipid droplet regulating VLDL assembly factor) | SID329572882 | -0.0644 | inactive |
| PCDHGB1 (protocadherin gamma subfamily B, 1) | SID329579963 | 0.123 | inactive |
| WNT7A (Wnt family member 7A) | SID329575815 | -1.15 | active |
| LHX3 (LIM homeobox 3) | SID329575987 | 2.41 | active |

A stretch from the list above:
| gene knocked down | PubChem SID | z-score vs non-targeting control | call |
| --- | --- | --- | --- |
| MYBPHL (myosin binding protein H like) | SID329584120 | 1.04 | active |
| FNDC1 (fibronectin type III domain containing 1) | SID329581669 | 0.257 | inactive |
| RHOC (ras homolog family member C) | SID329572812 | -2.45 | active |

Additional records follow:
| gene knocked down | PubChem SID | z-score vs non-targeting control | call |
| --- | --- | --- | --- |
| EPGN (epithelial mitogen) | SID329583722 | 0.218 | inactive |
| PCDHGA5 (protocadherin gamma subfamily A, 5) | SID329579967 | 1.36 | active |
| TRUB2 (TruB pseudouridine synthase family member 2) | SID329578455 | -0.678 | inactive |
| TMEM79 (transmembrane protein 79) | SID329581577 | -0.592 | inactive |
| SPO11 (SPO11 initiator of meiotic double strand breaks) | SID329578096 | -0.91 | inactive |
| TMF1 (TATA element modulatory factor 1) | SID329575671 | -0.538 | inactive |
| GOLT1B (golgi transport 1B) | SID329578865 | 2.43 | active |
| PAX9 (paired box 9) | SID329574753 | 0.831 | inactive |
| TEKT1 (tektin 1) | SID329581431 | -0.365 | inactive |
| SERAC1 (serine active site containing 1) | SID329581787 | -0.142 | inactive |
| ADRA2A (adrenoceptor alpha 2A) | SID329572709 | -1.09 | active |
| TARS2 (threonyl-tRNA synthetase 2, mitochondrial) | SID329581179 | 1.24 | active |
| ZNF347 (zinc finger protein 347) | SID329581696 | 1.16 | active |
| JPT2 (Jupiter microtubule associated homolog 2) | SID329581976 | 0.577 | inactive |
| SOX8 (SRY-box transcription factor 8) | SID329578769 | -1.89 | active |
| TUBB2B (tubulin beta 2B class IIb) | SID329584163 | -1.36 | active |
| DHDDS (dehydrodolichyl diphosphate synthase subunit) | SID329581090 | -2.14 | active |
| IRF9 (interferon regulatory factor 9) | SID329577121 | -1.45 | active |
| TAS2R10 (taste 2 receptor member 10) | SID329578826 | -0.395 | inactive |
| SLC2A12 | SID329583100 | -0.582 | inactive |
| BSPH1 (binder of sperm protein homolog 1) | SID329584759 | -0.489 | inactive |
| SELPLG (selectin P ligand) | SID329575292 | -2.36 | active |
| NKX2-3 (NK2 homeobox 3) | SID329583175 | 0.925 | inactive |
| C12orf57 (chromosome 12 open reading frame 57) | SID329582183 | -0.987 | inactive |
| CERCAM (cerebral endothelial cell adhesion molecule) | SID329578935 | -1.5 | active |
| CEP131 (centrosomal protein 131) | SID329577756 | 1.05 | active |
| MRPS11 (mitochondrial ribosomal protein S11) | SID329580726 | -1.1 | active |
| BPIFA1 (BPI fold containing family A member 1) | SID329579007 | 0.242 | inactive |
| BAHCC1 (BAH domain and coiled-coil containing 1) | SID329580314 | -0.765 | inactive |
| NOP58 (NOP58 ribonucleoprotein) | SID329579140 | -2.02 | active |
